Experimental data from PMC6624210 (Nature Communications, 2019).

Target: MERS-CoV S1 NTD (residues 18-353), wild type (MERS-CoV, EMC strain (NTD sequence …, UniProt K9N5Q8))

B1: 7D10-H (chimeric 7D10: V segments of mouse mAb 7D10 on the human IgG1 backbone) (antibody, V domains shown)
VH: EVQLVESGAEVVKPGASVKMSCKASGYPFTSYNIHWIKQTPGQGLEWIGAIYPGNGDTSYTQKFKVKATLTSDKSSSTAYMQLSSLTSEDSAVYFCARYGNYPSYAMDYWGQGTSVTVSS
VL: DIVMTQSPASLTVSLGQRATISCRASKSVSASGYNYLHWYQQRPGQPPKLLIYLAFNLESGVPARFNGSGSGTDFTLNIHPVEEEDAATYYCQHSRDLPFTFGSGTKLEIK
koff: 0.00101 s⁻¹
kon: 40400 M⁻¹ s⁻¹
